Tested on: human peripheral blood monocytes (PBMCs)
Assay: ELISPOT platform building experiment (Human IFN-γ Single-Color ELISPOT)
Format: cell-based

Influenza Matrix M1: antigenic peptide fragment of human influenza virus: sequence fragment at positions 58-66 of Influenza Matrix Protein M1; supplier Cellular Technology Limited
number of spots finally formed in each well of a Petri dish: increases with the increase of the additional amount of the antigenic peptide fragment
